Structures were worked out from names or drawings and are uncertain.
Biological target: Escherichia coli DNA gyrase A/B tetramer (Escherichia coli, UniProt P0AES4+P0AES6)
Test: DNA gyrase supercoiling activity fluorescence polarisation assay
Format: biochemical
Conditions: E. coli DNA gyrase supercoiling; asterisk: no IC50 obtained at or below the indicated concentration

Sequences of proteins named here, by UniProt entry; tags and fusion partners are left off.
UniProt P0AES4, whole entry: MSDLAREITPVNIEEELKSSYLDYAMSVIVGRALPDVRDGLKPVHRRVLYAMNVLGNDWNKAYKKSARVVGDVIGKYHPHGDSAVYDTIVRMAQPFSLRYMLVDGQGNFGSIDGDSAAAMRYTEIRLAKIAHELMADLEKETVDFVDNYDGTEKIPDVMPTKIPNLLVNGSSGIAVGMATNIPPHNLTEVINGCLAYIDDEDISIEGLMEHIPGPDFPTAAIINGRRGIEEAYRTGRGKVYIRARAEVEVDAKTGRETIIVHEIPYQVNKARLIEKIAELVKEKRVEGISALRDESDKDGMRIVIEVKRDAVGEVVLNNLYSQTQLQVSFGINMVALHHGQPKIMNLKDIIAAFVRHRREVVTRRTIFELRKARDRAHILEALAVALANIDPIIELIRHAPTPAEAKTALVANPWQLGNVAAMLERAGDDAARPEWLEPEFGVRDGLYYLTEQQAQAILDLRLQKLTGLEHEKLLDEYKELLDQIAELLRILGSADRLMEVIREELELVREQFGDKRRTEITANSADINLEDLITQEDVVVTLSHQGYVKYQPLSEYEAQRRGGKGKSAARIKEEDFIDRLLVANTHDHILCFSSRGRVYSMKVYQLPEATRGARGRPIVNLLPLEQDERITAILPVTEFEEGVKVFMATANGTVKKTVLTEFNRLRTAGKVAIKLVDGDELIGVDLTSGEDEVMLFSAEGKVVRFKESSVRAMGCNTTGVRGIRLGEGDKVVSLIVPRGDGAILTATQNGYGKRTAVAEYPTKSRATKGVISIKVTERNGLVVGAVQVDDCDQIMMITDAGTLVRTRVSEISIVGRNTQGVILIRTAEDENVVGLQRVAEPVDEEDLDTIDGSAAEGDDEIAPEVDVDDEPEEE

In the case of `Cc1nc(C)c(-c2ccc3c(n2)CC2(C(=O)NC(=O)NC2=O)[C@H]2[C@H](C)O[C@H](C)CN32)s1` (relative stereo), the IC50 is reported as > 83 µM.

From patent US20110178064A1, “SPIRO CONDENSED […] DERIVATIVES FOR USE AS ANTIBACTERIAL” (A[…]&D, priority 2007, published 2011)
